In article PMC7576996, “Antiparasitic Behavior of Trifluoromethylated Pyrazole 2-Amino-1,3,4-thiadiazole Hybrids and Their Analogues: Synthesis and Structure-Activity Relationship” (Frontiers in Pharmacology, 2020):

Tested on: epimastigote form of Trypanosoma cruzi
Test: Antiproliferative assay, epimastigote form of Trypanosoma cruzi (XTT, 96 h)
Format: cell-based
Settings: for fold less potent for T. cruzi compared to L. amazonensis: ratio of IC50 values
Description: All the novel trifluoromethylated pyrazoles derivatives 2a–f, 3a–f, and 4a–f were evaluated against the promastigote form of L. amazonensis and the epimastigote form of T. cruzi. The results are reported as the concentration causing a 50% inhibition in cell growth (IC50). Additionally, the toxicity of compounds was evaluated against two different cell lines: epithelial cell LLCMK2 and macrophages J774A1. The antiproliferative and cytotoxic activities are shown in Table 2 , as well as the calculated selectivity index (SI).
2.4. Antiproliferative activity
Promastigotes forms of Leishmania amazonensis (strain WHOM/ BR/75/JOSEFA) were
cultured in Warren medium (brain heart infusion, hemin, and folic acid; pH 7.4) supplemented with
10% fetal bovine serum (FBS) at 25 °C. Epimastigote forms of Trypanosoma cruzi (Y strain) were
cultured in LIT medium (liver infusion tryptose; hemim, and folic acid; pH 7.4) supplemented with
Cytotoxicity activity was determined in LLCMK2 (epithelial cells of kidney of Macaca
mulatta) cells and J774A1 macrophages. LLCMK2 (epithelial cells of kidney of Macaca mulatta) cells
were cultured in Dulbecco’s modified Eagle’s medium (DMEM, pH 7.2) supplemented with 10% FBS
at 37 °C in a 5% CO2 atmosphere. J774A1 macrophages were cultured in RPMI-1640 (pH 7.2) medium
supplemented with 10% FBS at 37 °C in a 5% CO2 atmosphere.
2.4.2. Dilution of compounds
Stock solutions of the compounds were prepared in DMSO and then diluted in the respective
medium. The groups (controls and treated) were tested with DMSO concentrations below 1%, with
2.4.3. Antiproliferative assay
Promastigote forms (1 × 10^6 parasites/mL) were cultured in 96-well plates in the presence and
absence of different concentrations of compounds diluted in Warren medium supplemented with 10%
FBS and incubated for 72h. Epimastigote forms (1 × 10^6 parasites/mL) were cultured in 96 -well plates
in the presence and absence of different concentrations of compounds diluted in LIT medium
supplemented with 10% FBS and incubated for 96h. After treatment, the parasites were incu bated with
a solution of 2,3 -bis (2 -methoxy -4-nitro -5-sulfophenyl) -2H-tetrazolium -5-carboxanilide (XTT; 0.5
mg/mL) and phenazine methanesulfonate activator (PMS; 0.06 mg/mL) in PBS for 4h. Then, the
absorbance was read in a microplate reader (Bio Tek - Power Wave XS) at 450 nm. The percentage of
viable parasites was calculated in relation to the control in order to determine the concentration that
inhibits 50% of the protozoa (IC 50).
2.4.4. Cytotoxicity assay
LLCMK2 cells (2.5 × 10^5 cells/mL) suspension was prepared in DMEM medium supplemented
with 10% FBS and added to 96-well plates. Then, the plates were incubated at 37 °C in a […]
mg/mL) for 4h. Then, DMSO was added for solubilization of the formazan and analyzed with a reading

| Structure (SMILES) | fold less potent for T. cruzi compared to L. amazonensis | fold decrease in activity against T. cruzi (formyl derivative compared to 2a) [fold] |
| --- | --- | --- |
| CSC(N)=NN=Cc1c(C(F)(F)F)nn(-c2ccccc2)c1-c1ccc(Br)cc1 [3d] | about 2 fold |  |
| O=Cc1c(C(F)(F)F)nn(-c2ccccc2)c1-c1ccc([N+](=O)[O-])cc1 [compound 5, 3-trifluoromethyl-4-formyl-5-(4-nitrophenyl)-1-phenyl-1H-pyrazole] |  | 2 |
| NC(=S)NN=Cc1c(C(F)(F)F)nn(-c2ccccc2)c1-c1ccc(Br)cc1 [2d, 5-(4-bromophenyl)-4-[(2-carbamothioyl-hydrazinylidene)methyl]-3-trifluoromethyl-1-phenyl-1H-pyrazole] | about 2 fold |  |
| Nc1nnc(-c2c(C(F)(F)F)nn(-c3ccccc3)c2-c2ccc(Br)cc2)s1 [4d, 4-[(2-amino)-1,3,4-thiadiazo-5-yl]-5-(4-Bromophenyl)-3-trifluoromethyl-1-phenyl-1H-pyrazole] | about 2 fold |  |
